Results of unrelated studies side by side (data: NIAID ChemDB).

All rows: cytotoxicity tests; measure: CC50

a–b is a range or a potency band.

structure	read by	cells	result
Cc1c(C(=O)Nc2cccc(Cl)n2)c(C)n(C)c1C(=O)C(=O)NC1CCC(O)CC1	MTT	HepG2	>30 µM
COc1nsc(-c2ccccc2)c1C#N	-	L929	25 µM
Cn1ccnc1CN1CC[C@@H](N2CC(=O)N3[C@H](c4ccc5c(c4)OCO5)c4[nH]c5ccccc5c4C[C@@H]3C2=O)C1	resazurin	MRC-5 SV2	40 µM
Cc1cccc(Cn2ccc3nc(-c4ccccc4)nc-3c2)c1	-	MDBK	40 µg/mL
CSc1nsc(-c2cccs2)c1C#N	-	L929	6 µM
Nc1nc2c(ncn2CC[C@@H](CO)OCP(=O)(O)O)c(=O)[nH]1	-	MRS-5	10 µg/mL
Cc1cnsc1CCCCCCOc1ccc2c(c1)oc1ccccc12	crystal violet	WIS HELA	50 µg/mL
[O-][n+]1onc2ncnc(N3CC[N+]4(CC3)CC[N+]3(CCN(c5ncnc6no[n+]([O-])c56)CC3)CC4)c21	XTT	HELF	330 µM
OC[C@H]1O[C@@H](n2c(Br)nc3cc(Cl)c(Cl)cc32)[C@H](O)[C@@H]1O	-	CFU-GM	110 µM
Cc1cc(CCCCCCCOc2nc3ccccc3o2)on1	crystal violet	WIS HELA	50 µg/mL
Cc1c(C(=O)Nc2ccc(F)c(C3CC3)c2)c(C)n(C)c1C(=O)C(=O)NC(C)(C)C	MTT	HepG2	>30 µM
OCC1CCC(c2ccc3ncnc(Nc4ccc(C5CCOCC5)cc4)c3c2)O1	-	JFH-A4	18.9 µM
N#Cc1c(-c2ccccc2)s[nH]c1=S	-	L929	60 µM
Nc1ccn(CC[C@@H](CO)OCP(=O)(O)O)c(=O)n1	-	MRS-5	>100 µg/mL
O=C1Sc2nc3c(c(=S)n2C/C1=C/c1ccccc1)C1=C(CCC/C1=C\c1ccncc1)C(c1ccncc1)S3	MTT	KB	23.4 µM
FC(F)(F)c1ccccc1Cn1ccc2nc(-c3ccccc3)nc-2c1	-	MDBK	>100 µg/mL
CCO/C(C)=N\C1=C(C#N)C2=C(CCC/C2=C\c2ccncc2)C(c2ccncc2)S1	MTT	CNE-2	47.9 µM
S=C(NCCCc1ccc2c(n1)NCCC2)Nc1ccc(Cl)c(Cl)c1	-	PBMC	50 µM
FC(F)(F)c1cccc(Cn2ccc3nc(-c4ccccc4)nc-3c2)c1	-	MDBK	>100 µg/mL
Cn1cc(C(=O)NCc2ccc(Cl)cc2)c(=O)c2cc(CN3CCOCC3)ccc21	MTS	DAUDI	>117 µM
O=C1[C@H]2Cc3c([nH]c4ccccc34)[C@@H](c3ccc4c(c3)OCO4)N2C(=O)CN1[C@@H]1CCN(CCCCCO)C1	resazurin	MRC-5 SV2	32 µM
CCc1c(C(=O)Nc2ccc(F)c(C)c2)c(C)n(C)c1C(=O)C(=O)N[C@H](C)C(F)(F)F	MTT	HepG2	5–30 µM
Cc1cc(CCCCCCCOc2cccc3ccccc23)on1	crystal violet	WIS HELA	>50 µg/mL
CN(C)c1ccc(/C=C/C(=O)c2c(O)cc(/C=C/c3ccc(N(C)C)cc3)oc2=O)cc1	MTT	HCT116	>10 µM
N#Cc1c(-c2ccccc2)nsc1Cl	-	HEP-2	20 µM
O=C(NCCc1ccc2c(n1)NCCC2)Nc1ccc(Cl)c(Cl)c1	-	PBMC	1.5 µM
O=C1[C@H]2Cc3c([nH]c4ccccc34)[C@@H](c3ccc4c(c3)OCO4)N2C(=O)CN1[C@@H]1CCN(Cc2ccc3c(c2)OCO3)C1	resazurin	MRC-5 SV2	39 µM
CCOC1N=C2C3=C(N=C(C)N2N1c1ccccc1)SC(c1ccncc1)C1=C3/C(=C/c2ccncc2)CCC1	MTT	CNE-2	13.5 µM
CC(CN1CCc2ccccc2C1)NC(=O)Nc1ccc(Cl)c(Cl)c1	-	PBMC	25 µM
Cn1c2nc3ccccc3c-2cc2ccccc21	resazurin	L6	3.194 µM
O=C(NCc1ccc(Cl)cc1)c1cn2c(CCN3CCOCC3)cc3cc(CN4CCOCC4)cc(c1=O)c32	MTS	HSB-2	>17.9 µM
Cc1cc(O)c(C(=O)/C=C/C=C/c2ccc(N(C)C)cc2)c(=O)o1	MTT	HCT116	>10 µM
Cc1nsc(C)c1C#N	-	HEP-2	1000 µM
Cc1cc(CCCCCCCON(Cc2ccccc2)Cc2ccccc2)on1	crystal violet	WIS HELA	100 µg/mL
CC(C)Nc1nc2cc(Cl)c(Cl)cc2n1[C@H]1O[C@@H](CO)[C@H](O)[C@@H]1O	-	CFU-GM	90 µM
CSc1nsc(-c2ccc(Cl)cc2Cl)c1C#N	-	L929	8 µM
COc1ccc(/C=C/C(=O)c2c(O)cc(/C=C/c3ccc(N(C)C)cc3)oc2=O)cc1	MTT	HCT116	>10 µM
Cc1cc(NC(=O)c2c(C)c(C(=O)C(=O)N[C@H]3CCN(CC(=O)O)C3)n(C)c2C)ccc1F	MTT	HepG2	>30 µM
COc1ccc(-c2snc(SC)c2C#N)cc1	-	L929	10 µM
Cc1ccccc1-c1nc2ccn(Cc3ccc(Br)cc3)cc-2n1	-	MDBK	66 µg/mL
Cc1cc(NC(=O)c2c(C)c(C(=O)C(=O)NC3(C)CC(O)C3)n(C)c2-c2ccccn2)ccc1F	MTT	HepG2	>30 µM
Cc1cc(NC(=O)NCCc2ccc3c(n2)NCCC3)cnc1Cl	-	PBMC	50 µM
CCOC(=O)CNC1=C(C#N)C2=C(CCC/C2=C\c2ccncc2)C(c2ccncc2)S1	MTT	MGC-803	>50 µM
Cc1cc(NC(=O)c2c(C)c(C(=O)C(=O)NC3CCC(OCC(=O)NCCOCCOCCOCCOCCOCCOCCOCCNC(=O)CCCCC4SCC5NC(=O)NC54)CC3)n(C)c2C)ccc1F	MTT	PCR	>30 µM
O=C1[C@H]2Cc3c([nH]c4ccccc34)[C@@H](c3ccc4c(c3)OCO4)N2C(=O)CN1[C@@H]1CCN(CC2CCCCC2)C1	resazurin	MRC-5 SV2	6.6 µM
Cc1c(C(=O)Nc2ccc(B(O)O)cc2)c(C)n(C)c1C(=O)C(=O)NC(C)(C)C	MTT	HepG2	>30 µM
O=C(NCCc1ccc2c(n1)NCCC2)NCC1CC1	-	PBMC	50 µM
COc1ccc(/C=C/C=C/C(=O)c2c(O)cc(C)oc2=O)cc1	MTT	HCT116	>10 µM
CCc1c(C(=O)Nc2ccc(F)c(C)c2)c(C)n(C)c1C(=O)C(=O)NC1CCN(c2cccnn2)CC1	MTT	HepG2	>30 µM
Cc1cc(CCCCCCCOC2c3ccccc3-c3ccccc32)on1	crystal violet	WIS HELA	>50 µg/mL
COc1ccc(Br)cc1/C=C/C(=O)c1c(O)cc(/C=C/c2ccc(N(C)C)cc2)oc1=O	MTT	HCT116	>10 µM
CSc1nsc(-c2ccc(OS(=O)(=O)c3ccc(C)cc3)cc2)c1C#N	-	L929	25 µM

An empty or dashed field is not shown. CCn: concentration that lowers growth or viability of the cells by n%. Lines come from different laboratories, so protocols vary.